The results in this text go back to paper PMC9206510, “4′-Fluorouridine is an oral antiviral that blocks respiratory syncytial virus and SARS-CoV-2 replication” (Science (New York, N.y.), 2021).

For this test, the system named is recRSV-A2line19F-[FireSMASh]. It is filed as cell-based, respiratory syncytial virus. Particulars: 5 μM basolateral 4′-FlU.

In the case of `O=c1ccn([C@@H]2O[C@](F)(CO)[C@@H](O)[C@H]2O)c(=O)[nH]1` [4′-FlU, 4′-fluorouridine], the apical virus titer was determined as 78.18 TCID50.
